Anti-infective test results gathered from many reports (values: NIAID ChemDB through PubChem).

All rows: tests in culture; organism: Candida albicans; method: broth dilution; measure: MIC

a–b is a range or a potency band.

compound	setting	strain	value
CCCCCCCC(=O)NC(CCCN)C(=O)NC(CCCN)C(N)=O		ATCC 24433	>100 µg/mL
COc1ccc2cc1Oc1ccc(cc1)CCc1ccc(c(O)c1)Oc1cccc(c1)CC2		CA10	>512 µg/mL
CCCCCCCCCC(=O)NC(CCCN)C(=O)NC(CCCN)C(N)=O		ATCC 24433	>100 µg/mL
Cc1nn(C(=O)C(F)(F)F)c(=O)c2c(C)noc12		ATCC 10231	≥200 µg/mL
C[C@H]1[C@H](O)[C@@H](C)/C=C/C=C/C=C/C=C/C=C/C=C/C=C/[C@H](O[C@@H]2O[C@H](C)[C@@H](O)[C@H](N)[C@@H]2O)C[C@@H]2O[C@](O)(C[C@@H](O)C[C@@H](O)CC[C@H](O)[C@@H](O)C[C@@H](O)CC(=O)O[C@H]1C)C[C@H](O)[C@H]2C(=O)O		90029	0.03 µg/mL
O=c1c2[nH]c3ccccc3c2cnn1-c1ccc(F)cc1			250 µg/mL
Cc1nn2c(-c3ccncc3)nnc2sc1=NNc1ccc(Br)cc1		ATCC 10231	>100 µg/mL
O=c1c2[nH]c3ccccc3c2cnn1-c1ccc(Br)cc1			250 µg/mL
C=C1C[C@@H]2C[C@@H]3CCO[C@@H](O3)c3cccc(c3)/C=C\C[C@H]3O[C@@H](/C(C)=C/I)[C@H](C)[C@@H](OC(=O)/C=C/C[C@@H](C1)O2)[C@H]3C		96-489	>64 µg/mL
CC(=O)N1CCN(c2ccc(OC[C@H]3CO[C@](Cn4ccnc4)(c4ccc(Cl)cc4Cl)O3)cc2)CC1	pH 5	10 isolates	0.06 µg/mL
Cc1nn(C(=S)Nc2ccc(Cl)cc2)c(=O)c2c(C)noc12		ATCC 10231	50 µg/mL
CCCCCCCCCCCCCCCC(=O)NC(CCCN)C(=O)NC(CCCN)C(=O)NC(CCCN)C(N)=O		ATCC 24433	3.1 µg/mL
Cc1nc2c(=O)n(C(=O)Nc3ccc(Cl)cc3)nc(C)c2s1		ATCC 10231	≥200 µg/mL
Nn1c(SCC(O)(Cn2cncn2)c2ccc(Cl)cc2Cl)nnc1-c1ccc(Cl)cc1		PTCC 6027	>64 µg/mL
O[C@H]1[C@H]2c3cc4c(cc3CN3CCC(=C[C@@H]1O)[C@H]23)OCO4		ATCC 10231	3.56–57 µg/mL
CCC(C)CC(C)CCCCCCCCC(=O)N[C@H]1C[C@@H](O)[C@H](NCCN)NC(=O)[C@@H]2[C@@H](O)CCN2C(=O)[C@H]([C@H](O)CCN)NC(=O)[C@H]([C@H](O)[C@@H](O)c2ccc(O)cc2)NC(=O)[C@@H]2C[C@@H](O)CN2C(=O)[C@H]([C@@H](C)O)NC1=O	pH 4	10 isolates	0.06 µg/mL
CCn1c2ccccc2c2cnn(-c3ccc(Cl)cc3)c(=O)c21			250 µg/mL
Cc1nn(-c2ccc(S(=O)(=O)/N=C3\SCCN3c3ccc(F)cc3)cc2)c(=O)c2c(C)noc12		ATCC 10231	≥200 µg/mL
Nn1c(SCC(O)(Cn2cncn2)c2ccc(F)cc2F)nnc1-c1ccc(O)cc1		IRFC 192	>64 µg/mL
C[C@@H](c1ncncc1F)[C@](O)(Cn1cncn1)c1ccc(F)cc1F	pH 5	10 isolates	0.25 µg/mL
CCCCCCCCCCCCCCCC(=O)NC(CCCCN)C(=O)NC(CCCCN)C(N)=O		4896	2 µg/mL
O=C(CCn1ccnc1)c1cccc(O)c1		RTCC1024	64 µg/mL
Cc1ccccc1N/N=c1/sc2nnc(-c3ccncc3)n2nc1C		ATCC 66027	>100 µg/mL
OC(CCn1ccnc1)c1cccc(C(O)c2ccc(Cl)cc2)c1		RTCC1024	>64 µg/mL
COc1ccc(-c2nnc(SCC(O)(Cn3cncn3)c3ccc(F)cc3F)n2N)cc1		IRFC 192	>64 µg/mL
C=C1C[C@@H]2C[C@@H]3CCO[C@@H](O3)c3cccc(c3)/C=C\C[C@H]3O[C@@H](/C(C)=C/C#N)[C@H](C)[C@@H](OC(=O)/C=C/C[C@@H](C1)O2)[C@H]3C		ATCC 14503	>64 µg/mL
O=C(CCn1ccnc1)c1cccc(C(O)c2ccc(Cl)cc2)c1		RTCC 1003	64 µg/mL
NC[C@H]1O[C@H](O[C@H]2[C@H](O)[C@@H](O[C@H]3O[C@H](CO)[C@@H](O)[C@H](N)[C@H]3O)[C@H](N)C[C@@H]2N)[C@H](O)[C@@H](O)[C@@H]1O		Clinical Isolate 092251	18.8 µg/mL
CCC(C)CC(C)CCCCCCCCC(=O)N[C@H]1C[C@@H](O)[C@H](NCCN)NC(=O)[C@@H]2[C@@H](O)CCN2C(=O)[C@H]([C@H](O)CCN)NC(=O)[C@H]([C@H](O)[C@@H](O)c2ccc(O)cc2)NC(=O)[C@@H]2C[C@@H](O)CN2C(=O)[C@H]([C@@H](C)O)NC1=O		C-43	0.06 µg/mL
C=C1C[C@@H]2C[C@@H]3CCO[C@@H](O3)c3coc(n3)/C=C/C[C@H]3O[C@@H](/C(C)=C/C#N)[C@H](C)[C@@H](OC(=O)/C=C\C[C@@H](C1)O2)[C@H]3C		96-489	>64 µg/mL
C[C@@H](c1ncncc1F)[C@](O)(Cn1cncn1)c1ccc(F)cc1F		373	0.12 µg/mL
CCCCCCCCCC(=O)NC(CCCN)C(N)=O		ATCC 24433	>100 µg/mL
Cn1ncc2c3ccccc3n(C)c2c1=O			250 µg/mL
O=c1c(N2CCOCC2)c(N2CCN(S(=O)(=O)Cc3ccccc3)CC2)cnn1-c1ccccc1		C375	50 µg/mL
Oc1ccc2cc1Oc1ccc(cc1)CCc1ccc(O)c(O)c1Oc1cccc(c1)CC2		CA 02	256 µg/mL
OC(CCn1ccnc1)c1cccc(C(O)c2ccc(Br)cc2)c1		RTCC 1003	>64 µg/mL
Cc1nn(-c2ccc(S(=O)(=O)NC(=O)Nc3ccc(Cl)cc3)cc2)c(=O)c2c(C)noc12		ATCC 10231	100 µg/mL
Clc1ccccc1C(c1ccccc1)(c1ccccc1)n1ccnc1	pH 4	10 isolates	0.25 µg/mL
CCCCCCCCCCCC(=O)NC(CCCN)C(=O)NC(CCCN)C(=O)NC(CCCN)C(=O)NC(CCCN)C(=O)NC(CCCN)C(N)=O		ATCC 24433	12.5 µg/mL
CC(C)(O)c1cn(-c2ccc(Cl)cc2)nn1		URM 4385	128 µg/mL
O=C(CCn1ccnc1)c1ccc(Br)cc1		RTCC1024	>64 µg/mL
CCC(C)CC(C)CCCCCCCCC(=O)N[C@H]1C[C@@H](O)[C@H](NCCN)NC(=O)[C@@H]2[C@@H](O)CCN2C(=O)[C@H]([C@H](O)CCN)NC(=O)[C@H]([C@H](O)[C@@H](O)c2ccc(O)cc2)NC(=O)[C@@H]2C[C@@H](O)CN2C(=O)[C@H]([C@@H](C)O)NC1=O		8647	8 µg/mL
Nn1c(SCC(O)(Cn2cncn2)c2ccc(Cl)cc2Cl)nnc1-c1cccc(Br)c1		IRFC 36	>64 µg/mL
C=C1C[C@@H]2C[C@@H]3CCO[C@@H](O3)c3cccc(c3)/C=C/C[C@H]3O[C@@H](/C(C)=C/I)[C@H](C)[C@@H](OC(=O)/C=C/C[C@@H](C1)O2)[C@H]3C		UCD-FR1	>64 µg/mL
CCCCCCCCCCCCCCCCCC(=O)NC(CCCN)C(=O)NC(CCCN)C(=O)NC(CCCN)C(=O)NC(CCCN)C(N)=O		ATCC 24433	3.1 µg/mL
CC(=O)N1CCN(c2ccc(OC[C@H]3CO[C@](Cn4ccnc4)(c4ccc(Cl)cc4Cl)O3)cc2)CC1		ATCC 10231	30 µg/mL
Cc1ccc(C(O)c2cccc(C(O)CCn3ccnc3)c2)cc1		RTCC 1003	>64 µg/mL
Cn1c2ccccc2c2cnn(-c3ccccc3)c(=O)c21			250 µg/mL
COc1ccc(-c2nnc(SCC(O)(Cn3cncn3)c3ccc(Cl)cc3Cl)n2N)cc1		ATCC 18804	>64 µg/mL
Oc1ccc2cc1Oc1ccc(cc1)CCc1ccc(c(O)c1)-c1c(O)cccc1CC2		CA10	>512 µg/mL
Cc1nn(-c2ccc(S(=O)(=O)/N=C3\SCC(=O)N3c3ccc(Cl)cc3)cc2)c(=O)c2c(C)noc12		ATCC 10231	50 µg/mL
Cc1nn2c(-c3ccncc3)nnc2s/c1=N/Nc1ccccc1		ATCC 10231	25 µg/mL
OC(CCn1ccnc1)c1ccc(-c2ccccc2)cc1		RTCC1024	64 µg/mL

The first 7 rows once more:

compound | setting | strain | value
CCCCCCCC(=O)NC(CCCN)C(=O)NC(CCCN)C(N)=O |  | ATCC 24433 | >100 µg/mL
COc1ccc2cc1Oc1ccc(cc1)CCc1ccc(c(O)c1)Oc1cccc(c1)CC2 |  | CA10 | >512 µg/mL
CCCCCCCCCC(=O)NC(CCCN)C(=O)NC(CCCN)C(N)=O |  | ATCC 24433 | >100 µg/mL
Cc1nn(C(=O)C(F)(F)F)c(=O)c2c(C)noc12 |  | ATCC 10231 | ≥200 µg/mL
C[C@H]1[C@H](O)[C@@H](C)/C=C/C=C/C=C/C=C/C=C/C=C/C=C/[C@H](O[C@@H]2O[C@H](C)[C@@H](O)[C@H](N)[C@@H]2O)C[C@@H]2O[C@](O)(C[C@@H](O)C[C@@H](O)CC[C@H](O)[C@@H](O)C[C@@H](O)CC(=O)O[C@H]1C)C[C@H](O)[C@H]2C(=O)O |  | 90029 | 0.03 µg/mL
O=c1c2[nH]c3ccccc3c2cnn1-c1ccc(F)cc1 |  |  | 250 µg/mL
Cc1nn2c(-c3ccncc3)nnc2sc1=NNc1ccc(Br)cc1 |  | ATCC 10231 | >100 µg/mL

Blank or dashed fields: not listed here. Lines come from different laboratories, so protocols vary.